We go through nine substances from article PMC4917206, “Chemical Modification of Influenza CD8+ T-Cell Epitopes Enhances Their Immunogenicity Regardless of Immunodominance” (PLoS ONE, 2016).

Square brackets hold non-standard residues; d marks the D form. Ends that are not written are not given here. Phg = N[C@H](C(=O)O)c1ccccc1

For the experiment, the target named is T1, HLA-A*0201 (Homo sapiens, UniProt P04439, D140Y/D185E/D98H/E176V/E277Q/G131W/G231S/I119V/I121R/I166T/I218V/L300P/L318F/N151K/N90K/P208A/P217A/Q86G/Q94H/R138H/R169H/T345S).
T1 construct: Soluble MHC was dissolved in PBS containing 0.5 mg/ml bovine γ-globulin; made in house
The format is binding.
Regarding GILGFVFT[PRG] [G17], the “FP binding score, percentage inhibition of tracer peptide binding, 4h” value is on record as 88% and the “FP binding score, percentage inhibition of tracer peptide binding, 24h” value (“FP binding score, percentage inhibition … 24h” for short) came out at 88%.

In the case of GILGFVFT[CpALA] [G3], the “FP binding score, percentage inhibition of tracer peptide binding, 4h” value came to 90% and the “FP binding score, percentage inhibition … 24h” value is 90%.

With [4-FPHE]MYSDFHF[2-AOC] [F5], the “FP binding score, percentage inhibition of tracer peptide binding, 4h” value is listed as 95% and the “FP binding score, percentage inhibition … 24h” value was 94%.

As for [PHG][2-AOC]LSTVLGV [N172], the “FP binding score, percentage inhibition of tracer peptide binding, 4h” value was found to be 89% and the “FP binding score, percentage inhibition … 24h” value was determined as 86%.

With [Phg]ILGFVFTL [G7], the “FP binding score, percentage inhibition of tracer peptide binding, 4h” value is listed as 96% and the “FP binding score, percentage inhibition … 24h” value is reported as 94%.

As for [CSME]ILGFVFTL [G11], the “FP binding score, percentage inhibition of tracer peptide binding, 4h” value amounted to 72% and the “FP binding score, percentage inhibition … 24h” value stood at 70%.

G[NLE]LGFVFTL [G16]: the “FP binding score, percentage inhibition of tracer peptide binding, 4h” value turned out to be 91% and the “FP binding score, percentage inhibition … 24h” value is given as 90%.

Take GILGFVFT[ALG] [G13]: the “FP binding score, percentage inhibition of tracer peptide binding, 4h” value is reported as 88% and the “FP binding score, percentage inhibition … 24h” value is recorded as 88%.

For N[NLE]LSTVLGV [N53], the “FP binding score, percentage inhibition of tracer peptide binding, 4h” value is given as 66% and the “FP binding score, percentage inhibition … 24h” value was 61%.
